Compound potency records, mixed from different reports. Data source: NIAID ChemDB in PubChem.

All rows: whole-cell or culture tests; organism: HIV-1; method: p24 / ELISA / antigen; measure: EC50

Conditions beyond the fields shown may differ between rows. Blank or dashed fields: not listed here. ECn: concentration that inhibits the pathogen or its effect by n%.

structure	cell line	setting	strain	value
Cc1ccnc(C)c1C(=O)N1CCC(C)(N2CCN([C@@H](C)c3ccc(C(F)(F)F)cc3)[C@@H](C)C2)CC1	PBMC	-	BAL R5	0.005 µM
Cc1cn([C@H]2C[C@@H](N=[N+]=[N-])[C@@H](CO)O2)c(=O)[nH]c1=O	C8166	-	LAI	0.00217 µg/mL
Nc1ncnc2c1ncn2[C@@H]1O[C@H](OCP(=O)(O)O)C=C1F	PBMCs	4 d	B940374 (subtype B)	17.6 µM
c1ccc(CNCc2ccc(CN(Cc3nc4ccccc4[nH]3)C3CCCc4cccnc43)cc2)nc1	MT-4	-	NL4-3	0.051 µM
C=C(COCCc1ccccc1)[C@@H]1CC[C@]2(C(=O)NC(CC(C)C)C(=O)O)CC[C@]3(C)[C@H](CC[C@@H]4[C@@]5(C)CC[C@H](O)C(C)(C)[C@@H]5CC[C@]43C)[C@@H]12.CCl	MT-2	-	IIIB	27.8 µM
CCOC(=O)[C@H](C)N[P@](=O)(CO[C@@H]1C=C(F)[C@H](n2cnc3c(N)ncnc32)O1)Oc1ccccc1	PBMCs	-	-	0.0037 µM
CC1=CC2=C(C(C)C)C(O)C(=O)/C(=C\N[C@@H](C(=O)O)C(C)C)C2C(O)=C1c1c(C)cc2c(C(C)C)c(O)c(O)c(C=N[C@H](C(=O)O)C(C)C)c2c1O.[Na+].[Na+]	TZM-bl	-	IIIB	0.68 µM
Cc1cn([C@H]2C[C@H](N=[N+]=[N-])[C@@H](CO)O2)c(=O)[nH]c1=O	PBMCs	4 d	B940374 (subtype B)	0.31 µM
CC1=CC2=C(C(C)C)C(O)C(=O)/C(=C\N[C@H](C)C(=O)O)C2C(O)=C1c1c(C)cc2c(C(C)C)c(O)c(O)c(C=N[C@@H](C)C(=O)O)c2c1O.[Na+].[Na+]	TZM-bl	-	IIIB	0.36 µM
CC1(C)C(O[C@@H]2O[C@H](C(=O)O)[C@@H](O)[C@H](O)[C@H]2O[C@@H]2O[C@H](C(=O)O)[C@@H](O)[C@H](O)[C@H]2O)CC[C@]2(C)C3=CC=C4C5C[C@@](C)(C(=O)O)CC[C@]5(C)CC[C@@]4(C)[C@]3(C)CCC12	MT-4	-	EVK	500 µg/mL
CC(C)CCCC(C)(C)c1ccc(O)cc1O	PBMC	-	-	14.8 µM
CC[C@@]1(O)C(=O)OCc2c1cc1n(c2=O)Cc2c-1nc1ccccc1c2CO	PBMC	-	KM018	0.0009 µg/mL
Nc1ccn([C@H]2CC[C@@H](CO)O2)c(=O)n1	PBMC	-	-	0.0876 µM
O=c1oc2c(CN(CCO)CCO)c(O)ccc2cc1-c1nc2ccccc2s1	C8166	-	IIIB	4.33 µM
CC(C)[C@H](NC(=O)c1ccc2ccccc2n1)C(=O)N[C@@H](Cc1ccccc1)[C@H](O)CN1CC[C@@H](OCc2ccncc2)C[C@H]1C(=O)NC(C)(C)C	PBMC	-	DDIR	0.005 µM
COc1ccc(C(C)(C)CCCC(C)C)c(OC)c1	PBMC	-	-	>200 µM

Repeating the first 2 entries:

structure | cell line | setting | strain | value
Cc1ccnc(C)c1C(=O)N1CCC(C)(N2CCN([C@@H](C)c3ccc(C(F)(F)F)cc3)[C@@H](C)C2)CC1 | PBMC | - | BAL R5 | 0.005 µM
Cc1cn([C@H]2C[C@@H](N=[N+]=[N-])[C@@H](CO)O2)c(=O)[nH]c1=O | C8166 | - | LAI | 0.00217 µg/mL